Results: paper PMC8724787, “The epitope arrangement on flavivirus particles contributes to Mab C10’s extraordinary neutralization breadth across Zika and dengue viruses” (Cell, 2021)

Key:
Assay in all cases: cell-based or functional assay
[1] = molecular target: ZIKV strain PF13 envelope (E) protein on virions (Zika virus, strain PF13, strain)
[2] = molecular target: DENV1 strain Hawaii envelope (E) protein on virions (Dengue virus 1, strain Hawaii, UniProt A0A097PIH4, strain)
[3] = molecular target: DENV2 strain 16681 envelope (E) protein on virions (Dengue virus 2, strain 16681, UniProt A0A173DS53, strain)
[4] = molecular target: DENV3 strain H87 envelope (E) protein on virions (Dengue virus 3, strain H87, UniProt A0A0U2UQM7, strain)
[5] = molecular target: DENV4 strain 1-0093 envelope (E) protein on virions (Dengue virus 4, strain 1-0093 …, UniProt Q80L01, strain)

Row | Binder | neutralization of virus, FRNT on Vero cells: IC50 of bivalent C10 [1] | neutralization of virus, FRNT on Vero cells: IC50 of bivalent C10 [2] | neutralization of virus, FRNT on Vero cells: IC50 of bivalent C10 [3] | neutralization of virus, FRNT on Vero cells: IC50 of bivalent C10 [4] | neutralization of virus, FRNT on Vero cells: IC50 of bivalent C10 [5]
1 | C10 intact bivalent IgG1 (human monoclonal antibody EDE1 C10) (antibody, V domains shown) VH: EVQLVESGAEVKKPGASVKVSCKASGYTFTSYAMHWVRQAPGQRLEWMGWINAGNGNTKYSQKFQDRVTITRDTSASTAYMELSSLRSEDTAIYYCARDKVDDYGDYWFPTLWYFDYWGQGTLVTVSS VL: QSALTQPASVSGSPGQSITISCTGTSSDVGGFNYVSWFQQHPGKAPKLMLYDVTSRPSGVSSRFSGSKSGNTASLTISGLQAEDEADYYCSSHTSRGTWVFGGGTKLTVL | < 0.5 nM | 1 nM | < 0.5 nM | 5 nM | < 0.5 nM
2 | C10 bivalent F(ab')2 (other, human) VH: EVQLVESGAEVKKPGASVKVSCKASGYTFTSYAMHWVRQAPGQRLEWMGWINAGNGNTKYSQKFQDRVTITRDTSASTAYMELSSLRSEDTAIYYCARDKVDDYGDYWFPTLWYFDYWGQGTLVTVSS VL: QSALTQPASVSGSPGQSITISCTGTSSDVGGFNYVSWFQQHPGKAPKLMLYDVTSRPSGVSSRFSGSKSGNTASLTISGLQAEDEADYYCSSHTSRGTWVFGGGTKLTVL | < 0.5 nM | 1 nM | < 0.5 nM | 5 nM | < 0.5 nM
